Results reported in PMC4338043, “Two Classes of Bacterial IMPDHs according to Their Quaternary Structures and Catalytic Properties” (2015).

Chains of the proteins cited; added tags and fusions are not shown. Lines headed by an entry give the natural chain unless they say otherwise; changes in a name come on top. Residues count along the entry.
UniProt Q9HXM5, 1-489: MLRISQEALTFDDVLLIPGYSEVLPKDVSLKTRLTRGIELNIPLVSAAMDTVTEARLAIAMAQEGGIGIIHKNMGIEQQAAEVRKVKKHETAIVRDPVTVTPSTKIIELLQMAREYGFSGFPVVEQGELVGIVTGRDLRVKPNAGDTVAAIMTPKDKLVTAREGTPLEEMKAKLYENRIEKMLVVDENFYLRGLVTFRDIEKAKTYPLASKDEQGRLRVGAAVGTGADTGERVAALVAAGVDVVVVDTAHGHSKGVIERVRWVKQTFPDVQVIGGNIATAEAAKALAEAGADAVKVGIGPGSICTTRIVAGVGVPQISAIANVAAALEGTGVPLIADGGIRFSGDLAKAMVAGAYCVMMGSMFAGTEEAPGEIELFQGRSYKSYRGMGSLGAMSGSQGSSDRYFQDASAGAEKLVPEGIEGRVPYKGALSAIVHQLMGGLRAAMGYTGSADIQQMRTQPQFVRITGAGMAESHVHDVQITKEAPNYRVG
UniProt A0A6L8P2U9, 1-487: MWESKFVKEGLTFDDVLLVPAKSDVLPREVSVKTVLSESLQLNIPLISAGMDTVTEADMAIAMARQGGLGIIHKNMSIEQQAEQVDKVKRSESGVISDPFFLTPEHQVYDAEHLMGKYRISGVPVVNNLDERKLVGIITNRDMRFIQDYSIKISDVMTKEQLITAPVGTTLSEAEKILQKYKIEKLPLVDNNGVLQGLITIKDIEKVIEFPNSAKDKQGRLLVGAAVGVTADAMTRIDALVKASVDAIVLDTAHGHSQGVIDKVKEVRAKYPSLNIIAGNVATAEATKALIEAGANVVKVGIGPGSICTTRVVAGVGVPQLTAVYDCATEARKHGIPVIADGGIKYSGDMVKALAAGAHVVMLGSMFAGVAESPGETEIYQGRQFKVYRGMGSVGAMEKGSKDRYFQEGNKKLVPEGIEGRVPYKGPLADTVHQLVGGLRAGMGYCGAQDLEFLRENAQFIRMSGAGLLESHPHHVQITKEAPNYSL
UniProt Q2SWW9, 1-486: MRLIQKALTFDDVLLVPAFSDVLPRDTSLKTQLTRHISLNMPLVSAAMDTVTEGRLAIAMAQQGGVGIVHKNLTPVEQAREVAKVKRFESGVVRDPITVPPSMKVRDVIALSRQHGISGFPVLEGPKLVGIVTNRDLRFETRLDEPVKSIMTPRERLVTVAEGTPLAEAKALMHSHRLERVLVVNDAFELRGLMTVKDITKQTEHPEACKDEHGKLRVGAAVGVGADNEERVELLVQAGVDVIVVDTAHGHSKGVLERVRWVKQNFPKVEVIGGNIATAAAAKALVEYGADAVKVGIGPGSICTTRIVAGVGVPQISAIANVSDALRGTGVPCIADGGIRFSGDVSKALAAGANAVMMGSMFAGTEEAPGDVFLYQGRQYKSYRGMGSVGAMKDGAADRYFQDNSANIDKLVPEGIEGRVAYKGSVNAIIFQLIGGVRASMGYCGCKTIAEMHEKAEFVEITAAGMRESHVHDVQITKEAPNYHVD
UniProt P99106: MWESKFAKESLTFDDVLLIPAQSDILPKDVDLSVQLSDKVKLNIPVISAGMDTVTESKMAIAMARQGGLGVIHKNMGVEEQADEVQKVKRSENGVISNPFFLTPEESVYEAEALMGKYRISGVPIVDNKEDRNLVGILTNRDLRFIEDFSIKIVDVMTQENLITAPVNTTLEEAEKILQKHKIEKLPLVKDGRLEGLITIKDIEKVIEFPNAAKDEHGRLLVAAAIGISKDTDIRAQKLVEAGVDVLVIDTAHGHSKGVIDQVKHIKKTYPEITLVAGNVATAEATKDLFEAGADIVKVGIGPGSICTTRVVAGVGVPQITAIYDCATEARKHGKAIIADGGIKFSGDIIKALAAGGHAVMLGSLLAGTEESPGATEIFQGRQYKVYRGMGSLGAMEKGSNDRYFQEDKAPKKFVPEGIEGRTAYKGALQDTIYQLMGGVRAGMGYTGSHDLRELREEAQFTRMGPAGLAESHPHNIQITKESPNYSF
UniProt Q5ZUR9, 1-490: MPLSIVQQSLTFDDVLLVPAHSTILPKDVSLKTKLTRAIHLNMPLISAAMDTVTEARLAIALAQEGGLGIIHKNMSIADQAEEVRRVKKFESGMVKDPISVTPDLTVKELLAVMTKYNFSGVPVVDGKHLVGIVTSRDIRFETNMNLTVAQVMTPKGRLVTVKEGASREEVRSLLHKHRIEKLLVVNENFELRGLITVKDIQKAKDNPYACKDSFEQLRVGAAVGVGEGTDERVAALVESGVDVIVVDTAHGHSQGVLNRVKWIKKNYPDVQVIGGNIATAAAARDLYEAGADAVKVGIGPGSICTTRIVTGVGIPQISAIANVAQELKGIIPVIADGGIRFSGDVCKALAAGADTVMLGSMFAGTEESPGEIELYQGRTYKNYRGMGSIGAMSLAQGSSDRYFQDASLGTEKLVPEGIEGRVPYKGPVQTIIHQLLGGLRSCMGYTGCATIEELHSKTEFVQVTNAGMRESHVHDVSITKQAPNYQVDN

Assays:
IMPDHpa [1] = target: T1, IMPDHpa (Pseudomonas aeruginosa, UniProt Q9HXM5); assay: IMPDH enzymatic assay (NADH formation), steady state kinetics; conditions: non saturating concentrations of both substrates
IMPDHpa [2] = target: T1, IMPDHpa; assay: ATP-γ-AmNS fluorescence binding; conditions: excitation at 323 nm; ATP-γ-AmNS 1 μM, 5 mM MgCl2
IMPDHba [3] = target: T2, IMPDHba (Bacillus anthracis, UniProt A0A6L8P2U9); assay: Analytical ultracentrifugation, sedimentation velocity with substrates or effector; conditions: enzyme 1 mg/mL (18.3 μM), IMP 10 mM, NAD 3 mM, MgATP 3 mM
IMPDHbt [4] = target: T3, IMPDHbt (Burkholderia thailandensis, UniProt Q2SWW9); assay: as above; conditions: enzyme 1 mg/mL (18.5 μM), IMP 10 mM, NAD 3 mM, MgATP 3 mM
IMPDHsa [5] = target: T4, IMPDHsa (Staphylococcus aureus, UniProt P99106); assay: as above; conditions: enzyme 1 mg/mL (18.2 μM), IMP 10 mM, NAD 7 mM, MgATP 3 mM
IMPDHpa [6] = target: T1, IMPDHpa; assay: as above; conditions: enzyme 1 mg/mL (18.6 μM), IMP 10 mM, NAD 3 mM, MgATP 3 mM
IMPDHkp [7] = target: T5, IMPDHkp (Klebsiella pneumoniae, UniProt A6TCC3); assay: as above; conditions: enzyme 1 mg/mL (18.4 μM); IMP 10 mM, NAD 3 mM, MgATP 3 mM; higher order species also present
IMPDHlpp [8] = target: T6, IMPDHlpp (Legionella pneumophila subsp. pneumophila, UniProt Q5ZUR9); assay: as above; conditions: enzyme 1 mg/mL (18.3 μM), IMP 10 mM, NAD 3 mM, MgATP 3 mM
IMPDHba [9] = target: T2, IMPDHba; assay: IMPDH enzymatic assay (NADH formation), steady state kinetics; conditions: IMP 2 mM
IMPDHbt [10] = target: T3, IMPDHbt; assay: as above
IMPDHsa [11] = target: T4, IMPDHsa; assay: as above; conditions: IMP 2 mM
IMPDHkp [12] = target: T5, IMPDHkp; assay: as above; conditions: IMP 1 mM
IMPDHnm = assay: as above; conditions: IMP 3 mM
IMPDHlpp [13] = target: T6, IMPDHlpp; assay: as above; conditions: IMP 2 mM
IMPDHpa [14] = target: T1, IMPDHpa; conditions: IMP 7 mM, cited from earlier work
[15] = read-out: Km, NAD as variable substrate, with MgATP, with MgATP
[16] = read-out: Km, NAD as variable substrate, without MgATP

For “Adenosine-5′-triphosphate-γ-(sulfo-1-naphtyl)amide, triethylammonium salt”, the “increase of IMPDHpa reaction rate (factor)” value (IMPDHpa [1]) was 5.6 and the “change of ATP-γ-AmNS fluorescence upon addition of the enzyme” value (IMPDHpa [2]) was “increase in fluorescence intensity as well as a shift of the emission spectrum to shorter wavelengths”.

In the case of `NC(=O)c1ccc[n+]([C@@H]2O[C@H](COP(=O)([O-])OP(=O)(O)OC[C@H]3O[C@@H](n4cnc5c(N)ncnc54)[C@H](O)[C@@H]3O)[C@@H](O)[C@H]2O)c1`, the “f/f0 of the enzyme in the presence of the ligand” value (“f/f0 of the enzyme” below) (IMPDHba [3]) is reported as 1.35, the “S20, W of the enzyme in the presence of the ligand” value (“S20, W of the enzyme” below) (IMPDHba [3]; interference) is reported as 14.4 ± 0.6 S and the “f/f0 of the enzyme” value (IMPDHbt [4]) is reported as 1.30. For the same compound, the “S20, W of the enzyme” value (IMPDHbt [4]; interference) was 15.5 ± 0.3 S, the “f/f0 of the enzyme” value (IMPDHsa [5]) was 1.25 and 1.40 and the “S20, W of the enzyme” value (IMPDHsa [5]; interference) was 10.0 ± 0.6 S and 14.0 ± 0.9 S. The “f/f0 of the enzyme” value (IMPDHpa [6]) was 1.30, the “S20, W of the enzyme” value (IMPDHpa [6]; interference) was 15.3 ± 0.1 S and the “S20, W of the enzyme” value (IMPDHkp [7]) was 14.9 ± 0.4 S. The f/f0 of the enzyme in the presence of the ligand (IMPDHkp [7]) was 1.3 ^†, the “f/f0 of the enzyme” value (IMPDHlpp [8]) was 1.25 and the “S20, W of the enzyme” value (IMPDHlpp [8]; interference) was 15.9 ± 0.2 S. For the same compound, the “Vm, NAD as variable substrate, without MgATP” value (shortened to “Vm, NAD … without MgATP”) (IMPDHba [9]) was 6.53 ± 0.19 U/mg, the “Vm, NAD as variable substrate, with MgATP” value (shortened to “Vm, NAD … with MgATP”) (IMPDHba [9]; with MgATP) was 5.93 ± 0.36 U/mg and the Km (IMPDHba [9]; [15]) was 1990 µM. For the same compound, the Km (IMPDHba [9]; [16]) was 2210 µM, the “Vm, NAD … without MgATP” value (IMPDHbt [10]; IMP 1 mM) was 2.82 ± 0.07 U/mg and the “inhibition by excess of NAD” value (IMPDHbt [10]; IMP 1 mM (Fig 3A)) was “slight inhibition by excess of NAD”. The “Vm, NAD … with MgATP” value (IMPDHbt [10]; IMP 1 mM, MgATP 5 mM (Fig 3)) was 2.78 ± 0.14 U/mg, the Km (IMPDHbt [10]; read-out: Km, NAD as variable substrate, with MgATP, IMP 1 mM, MgATP 5 mM (Fig 3)) was 418 µM and the Km (IMPDHbt [10]; read-out: Km, NAD as variable substrate, without MgATP, IMP 1 mM) was 355 µM. For the same compound, the “Vm, NAD … without MgATP” value (IMPDHsa [11]) was 11.10 ± 0.12 U/mg, the “Vm, NAD … with MgATP” value (IMPDHsa [11]; with MgATP) was 11.80 ± 0.50 U/mg and the Km (IMPDHsa [11]; [16]) was 2350 µM. For the same compound, the “Vm, NAD … without MgATP” value (IMPDHkp [12]) was 14.00 ± 0.10 U/mg, the “Vm, NAD … with MgATP” value (IMPDHkp [12]; with MgATP) was 13.80 ± 0.30 U/mg and the Km (IMPDHkp [12]; [15]) was 1120 µM. The “Vm, NAD … without MgATP” value (IMPDHnm) was 1.62 ± 0.03 U/mg, the “Vm, NAD … with MgATP” value (IMPDHnm; MgATP 2 mM) was 3.48 ± 0.07 U/mg and the Km (IMPDHnm; read-out: Km, NAD as variable substrate, with MgATP, MgATP 2 mM) was 477 µM. For the same compound, the Km (IMPDHnm; [16]) was 269 µM, the “Vm, NAD … without MgATP” value (IMPDHlpp [13]; 30°C) was 1.88 ± 0.06 U/mg and the “Vm, NAD … with MgATP” value (IMPDHlpp [13]; MgATP 5 mM) was 4.06 ± 0.19 U/mg. For the same compound, the Km (IMPDHlpp [13]; read-out: Km, NAD as variable substrate, without MgATP, 30°C) was 998 µM, the “Vm, NAD … with MgATP” value (IMPDHpa [14]; MgATP 3 mM) was 9.00 ± 0.5 U/mg and the “Vm, NAD … without MgATP” value (IMPDHpa [14]) was 2.26 ± 0.07 U/mg. The Ki (IMPDHpa [14]; read-out: Ki, NAD as variable substrate, with MgATP, substrate inhibition by NAD, MgATP 3 mM) was 4.07 mM, the Km (IMPDHpa [14]; read-out: Km, NAD as variable substrate, with MgATP, MgATP 3 mM) was 498 µM and the Km (IMPDHpa [14]; [16]) was 139 µM.

Where “and” joins values, the source holds several entries; their conditions need not be identical. Identical values can stand only once. Like-named read-outs stand apart in the source and are kept apart here.
